# Measured values reported in patent US20220267415A1.
# Target: B.1.1.529 Omicron variant spike protein on recombinant USA-WA1/2020 virus (SARS-CoV-2)
# Assay: cell-based or functional assay
substance,measurement,value
IgG antibody carrying the VH and VL regions of Sotrovimab (S309),Neutralization EC50,0.73 µg/mL
